PubChem BioAssay AID624099 | ICCB-Longwood, 2012
Aim: 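Host factors E2 relies on to silence an HPV18 LCR reporter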 (primary screen). Cell system: human C33A cervical carcinoma cells (HPV-negative) stably expressing BPV1 E2 and an HPV18 LCR luciferase reporter. Reagent: siRNA pool against human genes, 40 nM. Duration: 72 h. Detection: 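Per-well luciferase luminescence, z-scored on each plate against the plate mean and SD with control wells left out, then averaged across three replicate plates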. Direction: mean z-score and z-score: higher = stronger reporter signal, weaker E2 silencing. Call rule: 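Mean z ≥ 2 together with z ≥ 2 in two or more of the three replicates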.
In all, the deposit lists about 21,000 reagents; this is a part drawn at random. 497 of them (2.4%) were called active. 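Higher z means weaker E2 silencing; only reporter increases were scored, and knock-downs that hurt cell survival may mask genuine repressor factors.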 The numbers tell different reagents against one gene apart. No sequences are given here.

mean z-score	z-score, replicate A	z-score, replicate B	z-score, replicate C	call	Target gene	reagent
0.15	0.35	0.06	0.04	inactive	SSR2 (GeneID 6746)	1
-1.01	-1.01	-1.02	-1	inactive	WDHD1 (GeneID 11169)	1
-0.16	-0.04	-0.52	0.09	inactive	GNA13 (GeneID 10672)	1
3.64	3.64	3.68	3.6	active	OSTN (GeneID 344901)	1
-0.66	-0.6	-0.6	-0.79	inactive	CLCF1 (GeneID 23529)	1
-0.07	0.45	-0.25	-0.4	inactive	CYB561D2 (GeneID 11068)	1
0.69	0.65	0.88	0.55	inactive	RERG (GeneID 85004)	1
0.9	1.19	0.34	1.17	inactive	C16orf46 (GeneID 123775)	1
1.23	1.75	0.62	1.34	inactive	PRAMEF12 (GeneID 390999)	1
0.83	0.79	0.4	1.29	inactive	GCNA (GeneID 93953)	1
0.45	0.23	0.68	0.45	inactive	TCEANC (GeneID 170082)	1
0.28	0.21	0.16	0.48	inactive	LINC02667 (GeneID 728327)	1
-0.42	-0.41	-0.64	-0.2	inactive	OLFM1 (GeneID 10439)	1
0.54	0.29	0.94	0.38	inactive	LOC283604 (retired record) (GeneID 283604)	1
-1.32	-1.34	-1.59	-1.01	inactive	ABCA2 (GeneID 20)	1
0.04	-0.32	0.22	0.22	inactive	VPS18 (GeneID 57617)	1
1.35	1.04	1.39	1.61	inactive	DHX33 (GeneID 56919)	1
0.01	0.2	-0.14	-0.03	inactive	SPART (GeneID 23111)	1
0.12	0.14	0.27	-0.04	inactive	VIRMA (GeneID 25962)	1
0.77	0.57	0.22	1.51	inactive	MYDGF (GeneID 56005)	1
-0.81	-0.95	-0.43	-1.04	inactive	LOC401356 (retired record) (GeneID 401356)	1
0.04	-0.18	-0.03	0.35	inactive	NKAPD1 (GeneID 55216)	1
-0.54	-0.18	-0.83	-0.6	inactive	LOC166994 (retired record) (GeneID 166994)	1
0.88	0.72	0.82	1.11	inactive	FGF14-IT1 (GeneID 283480)	1
0.24	0.02	0.26	0.44	inactive	MYD88 (GeneID 4615)	1
0.16	-0.16	0.6	0.03	inactive	CISD1P1 (GeneID 130500)	1
0.37	1.55	-1.28	0.83	inactive	PRICKLE1 (GeneID 144165)	1
-0.78	-0.49	-0.67	-1.18	inactive	TNS2 (GeneID 23371)	1
-0.15	0.21	-0.48	-0.18	inactive	TMEM216 (GeneID 51259)	1
0.05	0.04	0.1	0	inactive	NRXN1 (GeneID 9378)	1
1.08	0.82	1.14	1.28	inactive	ATL3 (GeneID 25923)	1
0.24	0.29	0.22	0.2	inactive	ATL3 (GeneID 25923)	2
0.22	0.38	0.27	0.02	inactive	DLG3 (GeneID 1741)	1
-0.71	-0.65	-0.75	-0.74	inactive	ANAPC13 (GeneID 25847)	1
-0.75	-0.75	-0.83	-0.68	inactive	RPS19BP1 (GeneID 91582)	1
0.18	0.61	-0.25	0.18	inactive	LINC00242 (GeneID 401288)	1
1.08	0.78	1.49	0.95	inactive	MEX3B (GeneID 84206)	1
-0.61	-0.58	-0.37	-0.89	inactive	LRRC10 (GeneID 376132)	1
-1.24	-1.18	-1.35	-1.17	inactive	STX11 (GeneID 8676)	1
-0.07	0.13	-0.01	-0.34	inactive	IL1RN (GeneID 3557)	1
1.88	1.76	2.27	1.62	inactive	MTFMT (GeneID 123263)	1
0.29	0.01	0.41	0.46	inactive	WDR72 (GeneID 256764)	1
0.89	0.71	0.78	1.17	inactive	PDXK (GeneID 8566)	1
0.17	-0.14	0.33	0.31	inactive	PDXK (GeneID 8566)	2
0.16	-0.17	0.08	0.55	inactive	PDXK (GeneID 8566)	3
-0.61	-0.56	-0.54	-0.74	inactive	SCLT1 (GeneID 132320)	1
-1.13	-0.66	-1.19	-1.53	inactive	FAM53C (GeneID 51307)	1
0.23	0.43	0.29	-0.03	inactive	MYBPC3 (GeneID 4607)	1
-0.55	-0.46	-0.52	-0.66	inactive	POC5 (GeneID 134359)	1
0.02	0.15	0.11	-0.21	inactive	MED20 (GeneID 9477)	1
-0.99	-1.29	-0.81	-0.86	inactive	GBP6 (GeneID 163351)	1
-1.92	-1.76	-2.15	-1.83	inactive	LOC388220 (retired record) (GeneID 388220)	1
-0.19	-0.14	-0.2	-0.25	inactive	ATL1 (GeneID 51062)	1
-0.83	-0.93	-0.61	-0.95	inactive	TTLL3 (GeneID 26140)	1
1.91	1.96	2.03	1.75	inactive	POU3F2 (GeneID 5454)	1
1.13	1.22	1.36	0.82	inactive	LOC401490 (retired record) (GeneID 401490)	1
-0.35	-0.29	-0.35	-0.42	inactive	SLC9A1 (GeneID 6548)	1

Only “z-score, replicate B” (7 entries from above):
STX11 (GeneID 8676) = -1.35
IL1RN (GeneID 3557) = -0.01
MTFMT (GeneID 123263) = 2.27
WDR72 (GeneID 256764) = 0.41
PDXK (GeneID 8566) #1 = 0.78
PDXK (GeneID 8566) #2 = 0.33
PDXK (GeneID 8566) #3 = 0.08
